Measured values from several laboratories, pooled; numbers as filed in NIAID ChemDB.

Common to all: tests on isolated targets; species: Hepatitis C virus; target: NS3/NS4A protease; read-out: IC50

Two numbers with a dash give a range or band. Blank or dashed fields: not listed here. Rows are shuffled and stem from different studies. ICn is the concentration giving n% inhibition.

compound,strain,value
CCCNC(=O)N[C@H](C(=O)N1C[C@H](Oc2cc(-c3ccccc3)nc3cc(OC)ccc23)C[C@H]1C(=O)N[C@]1(C(=O)NS(=O)(=O)C2CC2)C[C@H]1CC)C(C)C,BMS,<0.05 µM
CCCCCCCCCCCCCCCCC/C(=C1\SC(=S)C(CC(=O)O)C1=O)c1ccccc1,,4.4 µM
C#CC[C@@H](C=O)C(=O)[C@H](CCC(=O)O)NC(=O)[C@@H](CCC(=O)O)NC(=O)[C@H](Cc1ccc([N+](=O)[O-])cc1)NC(=O)[C@H](CCC(=O)O)NC(=O)[C@H](CC(=O)O)NC(=O)CCC(=O)O,,39 µM
C=CC1CC1(NC(=O)C1C[C@@H](Oc2cc(-c3ccccc3)nc3cc(OC)ccc23)CN1C(=O)C(NC(=O)OC(C)(C)C)C(C)(C)C)C(=O)OCC,J4L6S,0.008 µM
C=C[C@@H]1C[C@]1(NC(=O)[C@@H]1C[C@@H](Oc2cc(-c3ccccc3)nc3cc(OC)ccc23)CN1C(=O)[C@@H](NC)C(C)(C)C)C(=O)NS(=O)(=O)C1CC1,BMS,<0.05 µM
C=CC1CC1(NC(=O)[C@@H]1C[C@@H](OC(=O)Nc2cc(C(=O)OCC)ccc2N2CCCCC2)CN1C(=O)[C@@H](NC(=O)OC(C)(C)C)C(C)(C)C)C(=O)NS(=O)(=O)C1CC1,BMS/H77C/J416S,<0.1 µM
CSCC[C@H](NC(=O)[C@H](CCC(=O)O)NC(=O)[C@H](CC(=O)O)NC(=O)CCC(=O)O)C(=O)N[C@H](C(=O)N[C@@H](CCC(=O)O)C(=O)N[C@H](C=O)CC(F)(F)F)C(C)C,,3 µM
C=C[C@H]1C[C@@]1(NC(=O)[C@@H]1C[C@@H](Oc2cc(-c3ccccc3)nc3cc(OC)ccc23)CN1C(=O)[C@@H](NC(=O)OC(C)(C)C)C(C)(C)C)C(=O)NS(=O)(=O)C1(CCCC)CC1,BMS,<0.05 µM
C#CC[C@@H](C=O)C(=O)[C@H](CCC(=O)O)NC(=O)[C@@H](CCC(=O)O)NC(=O)[C@H](Cc1ccc(Cl)cc1)NC(=O)[C@H](CCC(=O)O)NC(=O)[C@H](CC(=O)O)NC(=O)CCC(=O)O,,13 µM
C=CC1CC1(NC(=O)[C@@H]1C[C@@H](OC(=O)Nc2ccc3c(c2)OCO3)CN1C(=O)[C@@H](NC(=O)OC(C)(C)C)C(C)(C)C)C(=O)NS(=O)(=O)C1CC1,BMS/H77C/J416S,0.1–1 µM
C=C[C@H]1C[C@@]1(NC(=O)[C@@H]1C[C@@H](Oc2cc(-c3ccccc3)nc3cc(OC)ccc23)CN1C(=O)[C@@H](NC(=O)C1CCOCC1)C(C)(C)C)C(=O)NS(=O)(=O)C1(Cc2ccccc2)CC1,BMS,<0.05 µM
CSCC[C@H](NC(=O)[C@H](CCC(=O)O)NC(=O)[C@H](CC(=O)O)NC(=O)CCC(=O)O)C(=O)N[C@@H](CCC(=O)O)C(=O)N[C@@H](CCC(=O)O)C(=O)N[C@H](C=O)CC(F)(F)F,,20 µM
CCCC(=O)c1cc2c(c(O)c1C)C(=O)C(=O)c1c(O)cccc1-2,,7 µM
C=CC1CC1(NC(=O)[C@@H]1C[C@@H](Oc2cc(-c3ccccc3)nc3cc(OC)ccc23)CN1C(=O)[C@H](CC(C)C)NC(=O)OC(C)(C)C)C(=O)NS(C)(=O)=O,BMS,<0.5 µM
C=CC1C[C@@]1(NC(=O)[C@@H]1C[C@@H](Oc2cc(-c3ccccc3)nc3cc(OC)ccc23)CN1C(=O)[C@@H](NC(=O)CCOC)C(C)(C)C)C(=O)NS(=O)(=O)C1(Cc2ccccc2)CC1,BMS,0.05–0.5 µM
C=CC1CC1(NC(=O)[C@@H]1C[C@@H](OC(=O)Nc2cc(C(C)=O)ccc2N2CCC(C(=O)OCC)CC2)CN1C(=O)[C@@H](NC(=O)OC(C)(C)C)C(C)(C)C)C(=O)NS(=O)(=O)C1CC1,BMS/H77C/J416S,<0.1 µM
C=CC1C[C@@]1(NC(=O)[C@@H]1C[C@@H](Oc2cc(-c3ccccc3)nc3cc(OC)ccc23)CN1C(=O)[C@@H](NC(=O)Oc1ccc(F)cc1)C(C)(C)C)C(=O)NS(=O)(=O)C1(Cc2ccccc2)CC1,BMS,0.05–0.5 µM
C=CC1CC1(NC(=O)[C@@H]1C[C@@H](OC(=O)NCCc2ccccc2)CN1C(=O)[C@@H](NC(=O)OC(C)(C)C)C(C)(C)C)C(=O)NS(=O)(=O)C1CC1,BMS/H77C/J416S,0.1–1 µM
C=CC[C@@H](C=O)C(=O)[C@H](CCC(=O)O)NC(=O)[C@H](CCC(=O)O)NC(=O)[C@H](CCSC)NC(=O)[C@H](CCC(=O)O)NC(=O)[C@H](CC(=O)O)NC(=O)CCC(=O)O,,22 µM
C=C[C@H]1C[C@@]1(NC(=O)[C@@H]1C[C@@H](Oc2cc(-c3ccccc3)nc3cc(OC)ccc23)CN1C(=O)[C@@H](NC(=O)OC(C)(C)C)C(C)(C)C)C(=O)NS(=O)(=O)C1(Cc2c(C)noc2C)CC1,BMS,0.05–0.5 µM
C#CC[C@@H](C=O)C(=O)[C@H](CCC(=O)O)NC(=O)[C@@H](CCC(=O)O)NC(=O)[C@H](Cc1ccc(OC)cc1)NC(=O)[C@H](CCC(=O)O)NC(=O)[C@H](CC(=O)O)NC(=O)CCC(=O)O,,36 µM
C=C[C@@H]1C[C@]1(NC(=O)[C@@H]1C[C@@H](Oc2cc(-c3ccccc3)nc3cc(OC)ccc23)CN1C(=O)[C@@H](NC(=O)OC(C)(C)C)C1CCCC1)C(=O)NS(=O)(=O)C(C)C,BMS,<0.05 µM
C=CC1CC1(NC(=O)[C@@H]1C[C@@H](OC(=O)Nc2cc(C)ccc2F)CN1C(=O)[C@@H](NC(=O)OC(C)(C)C)C(C)(C)C)C(=O)O,BMS/H77C/J416S,>10 µM
CSCC[C@H](NC(=O)[C@H](CCC(=O)O)NC(=O)[C@H](CC(=O)O)NC(=O)CCC(=O)O)C(=O)N[C@@H](CCC(=O)O)C(=O)N[C@@H](CCC(=O)O)C(=O)[C@@H](C)C=O,,>200 µM
C=C[C@@H]1C[C@]1(NC(=O)[C@@H]1C[C@@H](Oc2cc(-c3ccccc3)nc3cc(OC)ccc23)CN1C(=O)[C@@H](NC(=O)OC(C)(C)C)C(C)(C)C)C(=O)NS(=O)(=O)c1cccc(C#N)c1,BMS,<0.05 µM
C=CC1CC1(NC(=O)[C@@H]1C[C@@H](OC(=O)Nc2cc(C)ccc2-n2cccc2)CN1C(=O)[C@@H](NC(=O)OC(C)(C)C)C(C)(C)C)C(=O)NS(=O)(=O)C1CC1,BMS/H77C/J416S,<0.1 µM
C=C[C@@H]1C[C@]1(NC(=O)[C@@H]1C[C@@H](Oc2cc(-c3ccccc3)nc3cc(OC)ccc23)CN1C(=O)[C@@H](NC(=O)OC(C)(C)C)C(C)(C)C)C(=O)NS(=O)(=O)C(C)C,BMS,<0.05 µM
C=CC1CC1(NC(=O)[C@@H]1C[C@@H](OC(=O)Nc2sccc2C(=O)OC)CN1C(=O)[C@@H](NC(=O)OC(C)(C)C)C(C)(C)C)C(=O)NS(=O)(=O)C1CC1,BMS/H77C/J416S,<0.1 µM

Repeating the final 2 entries:

compound | strain | value
C=C[C@@H]1C[C@]1(NC(=O)[C@@H]1C[C@@H](Oc2cc(-c3ccccc3)nc3cc(OC)ccc23)CN1C(=O)[C@@H](NC(=O)OC(C)(C)C)C(C)(C)C)C(=O)NS(=O)(=O)C(C)C | BMS | <0.05 µM
C=CC1CC1(NC(=O)[C@@H]1C[C@@H](OC(=O)Nc2sccc2C(=O)OC)CN1C(=O)[C@@H](NC(=O)OC(C)(C)C)C(C)(C)C)C(=O)NS(=O)(=O)C1CC1 | BMS/H77C/J416S | <0.1 µM